Anti-infective test results gathered from many reports (values: NIAID ChemDB through PubChem).

Common to all: target-level tests; species: HIV-1; target: Reverse transcriptase

a–b is a range or a potency band.

compound | mutations | method | read-out | strain or isolate | value
CCN1c2ncc(CCOc3ccc(-c4ncc[nH]4)cc3C)cc2C(=O)N(C)c2cccnc21 |  | nucleotide incorporation / radiometric | IC50 | IIIB | <0.05 µM
CC[C@H](C)[C@H](NC(=O)c1ccc(NC(=O)CSc2nnc(Br)n2-c2ccc(C3CC3)c3ccccc23)c(Cl)c1)C(=O)O |  | nucleotide incorporation / radiometric | IC50 |  | <0.05 µM
CCN1c2ncc(CCOc3ccc(C(=O)O)c4ccccc34)cc2C(=O)N(C)c2ccc(C)nc21 | RT-V106A | nucleotide incorporation / radiometric | IC50 |  | >1 µM
CCc1ccc(-n2c(SCC(=O)Nc3ccc(C(=O)O)cc3Cl)nnc2C(F)F)c2ccccc12 | RT-Y188L | nucleotide incorporation / radiometric | IC50 |  | >0.1 µM
CC(C(=O)Nc1ccc(NC(=O)CSc2nnnn2-c2ccc(C(C)(C)C)cc2Cl)c(Cl)c1)c1ccccc1 | RT-K103 Y181C | PicoGreen / fluorescence | IC50 |  | <1 µM
CC(C)=CCN1Cc2cccc3[nH]c(=S)n(c23)C[C@@H]1C |  | nucleotide incorporation | IC50 |  | 0.54 µM
COc1ccc2c(C)ccc(-n3c(Br)nnc3SCC(=O)Nc3ccc(C(=O)O)cc3Cl)c2c1 | RT-Y188L | nucleotide incorporation / radiometric | IC50 |  | <0.05 µM
CCN1c2ncc(CCOc3ccc(NC(=O)CCC(=O)O)c4ccccc34)cc2C(=O)N(C)c2cccnc21 | RT-K103N Y181C | nucleotide incorporation / radiometric | IC50 |  | 0.1–1 µM
CC(C)(N)C#Cc1ccc(NC(=O)CSc2nnnn2-c2cc(C(F)(F)F)ccc2Cl)c(Cl)c1F | RT-K103 Y181C | PicoGreen / fluorescence | IC50 |  | <1 µM
CCOC(=O)C(C)NS(=O)(=O)c1ccc(NC(=O)CSc2nnc(C(F)F)n2-c2ccc(C)c3c2CCCC3)c(Cl)c1 |  | nucleotide incorporation / radiometric | IC50 |  | <0.05 µM
Cc1nnc(SCC(=O)Nc2ccc(OCC(=O)N3CCC(C(=O)O)CC3)cc2Cl)n1-c1ccc(C2CC2)cc1Cl |  | PicoGreen / fluorescence | IC50 | WT | <1 µM
Cc1cn([C@H]2CC[C@@H](COP(=O)(O)OP(=O)(O)OP(=O)(O)O)O2)c(=O)[nH]c1=O | RT-1(IIIB) | nucleotide incorporation / radiometric | Ki | IIIB | 0.025 µM
CCN1c2ncc(CC(O)c3cc[n+]([O-])cc3)cc2C(=O)N(C)c2ccc(Cl)nc21 |  | nucleotide incorporation / radiometric | IC50 | WT | <1 µM
CC(C)(C#Cc1ccc(NC(=O)CSc2nnnn2-c2ccc(C(C)(C)C)cc2Cl)c(Cl)c1)OCC(=O)Nc1ccncc1 | RT-K103 Y181C | PicoGreen / fluorescence | IC50 |  | <1 µM
CCc1ccc(-n2c(Br)nnc2SCC(=O)Nc2ccc(C(=O)O)cc2Cl)c2ccccc12 |  | nucleotide incorporation / radiometric | IC50 |  | <0.05 µM
CCN1c2ncc(CCOc3ccc(-c4ccc(C(C)C(=O)O)cc4)cc3C)cc2C(=O)N(C)c2cccnc21 | RT-K103N Y181C | nucleotide incorporation / radiometric | IC50 | IIIB | <0.05 µM
CC(C)(C)c1ccc(-n2nnnc2SCC(=O)Nc2ccc(-c3ccc(OCC(=O)O)c(Cl)c3)cc2Cl)c(Cl)c1 |  | PicoGreen / fluorescence | IC50 | WT | <1 µM
CCN1c2ncc(CCc3ccc4cc[nH]c4c3)cc2C(=O)N(C)c2cccnc21 | RT-Y181C | nucleotide incorporation / radiometric | IC50 |  | <1 µM
CC(C)(C)c1ccc(-n2nnnc2SCC(=O)Nc2ccc(-c3ccc(OCC(=O)O)cc3F)cc2Cl)c(Cl)c1 | RT-K103 Y181C | PicoGreen / fluorescence | IC50 |  | <1 µM
NS(=O)(=O)c1ccc(NC(=O)CSc2nnc(Br)n2-c2ccc3c4c(cccc24)CC3)c(Cl)c1 | RT-Y188L | nucleotide incorporation / radiometric | IC50 |  | 0.05–0.1 µM
CCN1c2nc(C(F)(F)F)ccc2NC(=O)c2cc(CCOc3cc[n+]([O-])c4ccccc34)cnc21 | RT-Y188L | nucleotide incorporation / radiometric | IC50 |  | 0.578 µM
Cc1ccc(-n2c(SCC(=O)Nc3ccc(S(=O)(=O)NCCC(=O)O)cc3Cl)nnc2C(F)F)c2c1CCCC2 | RT-Y181C | nucleotide incorporation / radiometric | IC50 |  | >0.1 µM
CC(C)(C#Cc1ccc(NC(=O)CSc2nnnn2-c2ccc(C3CC3)cc2Cl)c(Cl)c1)OCCO |  | PicoGreen / fluorescence | IC50 | WT | <1 µM
CCN1c2ncc(CCOc3ccc(C(=O)O)c4c3CCC4)cc2C(=O)N(C)c2ccc(Cl)nc21 | RT-Y188L | nucleotide incorporation / radiometric | IC50 |  | 0.1–1 µM
Cc1ccc(-n2nnnc2SCC(=O)Nc2ccc(-c3cocn3)cc2Cl)c(Cl)c1 |  | PicoGreen / fluorescence | IC50 | WT | <1 µM
CCN1c2ncc(CCOc3ccc(CC(=O)O)c4c3CCCC4)cc2C(=O)N(C)c2cccnc21 |  | nucleotide incorporation / radiometric | IC50 | WT | <0.1 µM
Cc1cc(S(N)(=O)=O)ccc1NC(=O)C(C)Sc1nnc(Br)n1-c1c(C)ccc2ccccc12 | RT-Y181C | nucleotide incorporation / radiometric | IC50 |  | <0.05 µM
CCN1c2ncc(CCOc3ccc(-c4ccc(CCC(=O)O)o4)cc3)cc2C(=O)N(C)c2cccnc21 | RT-K103N Y181C | nucleotide incorporation / radiometric | IC50 | IIIB | >0.1 µM
Cc1cc(C)c(-n2c(SCC(=O)Nc3ccc(S(N)(=O)=O)cc3Cl)nnc2C(F)(F)F)c2c1CCCC2 | RT-Y188L | nucleotide incorporation / radiometric | IC50 |  | >0.1 µM
CCN1c2ncc(CCOc3ccc(-c4ccc(C)cc4)cc3C)cc2C(=O)N(C)c2cccnc21 | RT-K103N Y181C | nucleotide incorporation / radiometric | IC50 | IIIB | <0.05 µM
CCc1ccc(-n2c(Br)nnc2SCC(=O)Nc2ccc(C(=O)N3CCC(CN)CC3)cc2Cl)c2ccccc12 |  | nucleotide incorporation / radiometric | IC50 |  | <0.05 µM
NC(=O)c1[nH]c2ccc(Cl)cc2c1S(=O)(=O)c1ccccc1 | RT-L100I | nucleotide incorporation / radiometric | IC50 |  | 0.1 µM
NS(=O)(=O)c1ccc(NC(=O)CSc2nnc(Br)n2-c2ccc(C3CC3)cc2Cl)c(Cl)c1 | RT-Y188L | nucleotide incorporation / radiometric | IC50 |  | >0.1 µM
O=C(O)Cc1ccc(-c2ccc(NC(=O)CSc3nnnn3-c3ccc4ccccc4c3Cl)c(Cl)c2)cc1 | RT-K103 Y181C | PicoGreen / fluorescence | IC50 |  | <1 µM
Cc1cc(C)cc(S(=O)(=O)c2c(C(N)=O)[nH]c3ccc(Cl)cc23)c1 | RT-Y188L | nucleotide incorporation / radiometric | IC50 |  | 0.2 µM
CCN1c2ncc(CCOc3ccc(C(=O)O)c4ccccc34)cc2C(=O)Nc2c(C)cc(F)nc21 | RT-V106A | nucleotide incorporation / radiometric | IC50 |  | 0.1–1 µM
CCc1ccc(-n2c(SCC(=O)Nc3ccc(C(=O)O)cc3Cl)nnc2C(F)(F)F)c2ccccc12 | RT-Y181C | nucleotide incorporation / radiometric | IC50 |  | <0.05 µM
CCc1cc(CCc2nc3ccccc3o2)c(=O)[nH]c1C | RT-K103N Y181C | nucleotide incorporation | IC50 |  | 22.3 µM
CCN1c2ncc(CC(F)c3ccncc3)cc2C(=O)N(C)c2ccc(Cl)nc21 |  | nucleotide incorporation / radiometric | IC50 | WT | <1 µM
CCc1ccc(-n2c(SCC(=O)Nc3ccc(S(N)(=O)=O)cc3Cl)nnc2C(F)F)c2c1CCCC2 |  | nucleotide incorporation / radiometric | IC50 |  | <0.05 µM
CC(C)(C)c1ccc(-n2nnnc2SCC(=O)Nc2ccc(C#CC3CC3)cc2Cl)c(Cl)c1 | RT-K103 Y181C | PicoGreen / fluorescence | IC50 |  | <1 µM
CCN1c2ncc(CCOc3ccc(Nc4cccc(CC(=O)O)c4)cc3C)cc2C(=O)N(C)c2cccnc21 | RT-K103N Y181C | nucleotide incorporation / radiometric | IC50 | IIIB | <0.05 µM
Cc1cc(C#CC(C)(C)NC(=O)c2cc[n+]([O-])cc2)ccc1NC(=O)CSc1nnnn1-c1ccc(C2CC2)cc1Cl |  | PicoGreen / fluorescence | IC50 | WT | <1 µM
CCN1c2ncc(CCOc3ccc(-c4ccc(C(=O)O)cc4)cc3F)cc2C(=O)N(C)c2cccnc21 |  | nucleotide incorporation / radiometric | IC50 | IIIB | <0.05 µM
CC(C)(C)c1ccc(-n2nnnc2SCC(=O)Nc2ccc(OCC(=O)NCC3CCC(C(=O)O)CC3)cc2Cl)c(Cl)c1 | RT-K103 Y181C | PicoGreen / fluorescence | IC50 |  | <1 µM
CCN1c2ncc(CC(=O)c3ccncc3)cc2C(=O)N(C)c2ccc(Cl)nc21 |  | nucleotide incorporation / radiometric | IC50 | WT | <1 µM
CCN1c2ncc(CCOc3ccc(C(=O)Nc4ccc(C(=O)O)cc4)cc3C)cc2C(=O)Nc2c(C)ccnc21 |  | nucleotide incorporation / radiometric | IC50 | IIIB | <0.05 µM
CCCc1ccc(-n2c(Br)nnc2SCC(=O)Nc2ccc(S(N)(=O)=O)cc2Cl)c2ccccc12 |  | nucleotide incorporation / radiometric | IC50 |  | <0.05 µM
CC(C)(C)c1ccc(-n2nnnc2SCC(=O)Nc2ccc(NC(=O)c3ccc(C(=O)O)cc3)cc2Cl)c(Cl)c1 | RT-K103 Y181C | PicoGreen / fluorescence | IC50 |  | <1 µM
Nc1ncnc2c1ncn2[C@H]1CC[C@@H](COP(=O)(O)OP(=O)(O)OP(=O)(O)O)O1 | RT-A62V V75I F77L F116Y Q151M | nucleotide incorporation / radiometric | Ki |  | 4.1 µM
CC(C)(C#Cc1ccc(NC(=O)CSc2nnnn2-c2cc(C(F)(F)F)cc(C3CC3)c2Cl)c(Cl)c1)OCCN1CCC(F)(F)C1 | RT-K103 Y181C | PicoGreen / fluorescence | IC50 |  | <1 µM
Cc1cc(S(N)(=O)=O)ccc1NC(=O)CSc1nnc(Br)n1-c1c(Cl)cc(C2CCC2)c2ccccc12 | RT-Y188L | nucleotide incorporation / radiometric | IC50 |  | 0.05–0.1 µM
CC(C)(C#Cc1ccc(NC(=O)CSc2nnnn2-c2cc(Cl)ccc2Cl)c(Cl)c1)NC(=O)c1cc[n+]([O-])cc1 |  | PicoGreen / fluorescence | IC50 | WT | <1 µM
Cc1cc(C2CC2)ccc1-n1c(Br)nnc1SCC(=O)Nc1ccc(S(N)(=O)=O)cc1Cl |  | nucleotide incorporation / radiometric | IC50 |  | <0.05 µM
CC(C)(C#Cc1ccc(NC(=O)CSc2nnnn2-c2ccc(C(C)(C)C)cc2Cl)c(Cl)c1)OCC(=O)Nc1cccc(C(=O)O)c1 |  | PicoGreen / fluorescence | IC50 | WT | <1 µM
Cc1cc(S(N)(=O)=O)ccc1NC(=O)CSc1nnc(Br)n1-c1ccc2c3c(cccc13)CC2 | RT-Y181C | nucleotide incorporation / radiometric | IC50 |  | <0.05 µM
CC(C)(C)c1ccc(-n2nnnc2SCC(=O)Nc2ccc(NS(=O)(=O)c3ccccc3)cc2Cl)c(Cl)c1 |  | PicoGreen / fluorescence | IC50 | WT | <1 µM
CCN1c2ncc(CCOc3ccc(S(=O)(=O)Nc4ccc(C(=O)O)cc4)cc3C)cc2C(=O)N(C)c2cccnc21 |  | nucleotide incorporation / radiometric | IC50 | IIIB | <0.05 µM
Cc1cc(C)c(-n2nnnc2SCC(=O)Nc2ccc(-c3ccc(CC(=O)O)cc3)cc2Cl)c(Cl)c1 | RT-K103 Y181C | PicoGreen / fluorescence | IC50 |  | <1 µM
O=C(CSc1nnc(Br)n1-c1ccc(C2CC2)cc1Cl)Nc1ccc(S(=O)(=O)O)cc1Cl |  | nucleotide incorporation / radiometric | IC50 |  | <0.05 µM
Cc1ccc(-n2nnnc2SCC(=O)Nc2ccc(-c3ccc(O)cc3)cc2Cl)c(Cl)c1 | RT-K103 Y181C | PicoGreen / fluorescence | IC50 |  | <1 µM
CCN1c2ncc(CCOc3ccc(CCC(=O)O)c4ccccc34)cc2C(=O)Nc2c(C)cc(F)nc21 | RT-V106A | nucleotide incorporation / radiometric | IC50 |  | 0.1–1 µM
CN1CCN(CCOC(C)(C)C#Cc2ccc(NC(=O)CSc3nnnn3-c3ccc(C4CC4)cc3Cl)c(Cl)c2)CC1 | RT-K103 Y181C | PicoGreen / fluorescence | IC50 |  | <1 µM
CCc1ccc(-n2c(Br)nnc2SCC(=O)Nc2ccc(S(N)(=O)=O)cc2Cl)c2c1CCCC2 | RT-Y181C | nucleotide incorporation / radiometric | IC50 |  | <0.05 µM

The last 4 rows once more:

compound,mutations,method,read-out,strain or isolate,value
Cc1ccc(-n2nnnc2SCC(=O)Nc2ccc(-c3ccc(O)cc3)cc2Cl)c(Cl)c1,RT-K103 Y181C,PicoGreen / fluorescence,IC50,,<1 µM
CCN1c2ncc(CCOc3ccc(CCC(=O)O)c4ccccc34)cc2C(=O)Nc2c(C)cc(F)nc21,RT-V106A,nucleotide incorporation / radiometric,IC50,,0.1–1 µM
CN1CCN(CCOC(C)(C)C#Cc2ccc(NC(=O)CSc3nnnn3-c3ccc(C4CC4)cc3Cl)c(Cl)c2)CC1,RT-K103 Y181C,PicoGreen / fluorescence,IC50,,<1 µM
CCc1ccc(-n2c(Br)nnc2SCC(=O)Nc2ccc(S(N)(=O)=O)cc2Cl)c2c1CCCC2,RT-Y181C,nucleotide incorporation / radiometric,IC50,,<0.05 µM

Conditions beyond the fields shown may differ between rows. ICn: concentration for n% inhibition. Blank or dashed fields: not listed here.